A mixed list of measured activities; the numbers were collected in NIAID ChemDB.

All rows: whole-cell or culture tests; agent: Cytomegalovirus; read by: plaque count; endpoint: EC50

ECn: concentration that inhibits the pathogen or its effect by n%.

structure | strain or isolate | cell line | result
CC(C)C[C@H](NC(=O)n1nnc2ccccc21)C(=O)NC1CCCC1 | AD169 | HEL | >3.2 µg/mL
CCCCCCCCCCCCCCCC(=O)Nc1cc(S(=O)(=O)O)cc2cc(S(=O)(=O)O)cc(O)c12 | Isolate T-1082 | MRC-5 | 12 µM
COC(=O)/C=C1/[C@@H](O[Si](C)(C)C(C)(C)C)[C@H](n2cc(C)c(=O)n(C)c2=O)O[C@@H]1CO[Si](C)(C)C(C)(C)C |  | MRC-5 | >36 µM
CC1(C)[C@@H](CCO)C[C@H]1n1cnc2c(=O)[nH]c(N)nc21 | AD169 | HEL | >50 µg/mL
O=C(NC(c1ccccc1)c1ccccc1)[C@H](Cc1ccccc1)NC(=O)n1nnc2ccccc21 | DAVIS | HEL | >3.2 µg/mL
COC(=O)/C=C1/[C@@H](O[Si](C)(C)C(C)(C)C)[C@H](n2cc(C)c(=O)[nH]c2=O)O[C@@H]1CO[Si](C)(C)C(C)(C)C |  | MRC-5 | 1.5 µM
Cc1cc(N2CCN(C)CC2)cn2c(CSCCc3ccccc3)cnc12 | DAVIS |  | 4 µg/mL
CCC(C)C1NC(=O)N(CC2CCCCC2)C1=O | AD169 | HEL | >20 µg/mL
O=C(CCCCCCCCC(=O)Nc1cc(S(=O)(=O)O)cc2cc(S(=O)(=O)O)cc(O)c12)Nc1cc(S(=O)(=O)O)cc2cc(S(=O)(=O)O)cc(O)c12 | Isolate T-156 | MRC-5 | 48 µM
Nc1ncc2ncn([C@H]3CCC[C@H]3CO)c2n1 | AD169 | HEL | >5 µg/mL
NC1=NS(=O)(=O)N(Cc2ccccc2)c2nc[nH]c21 | DAVIS | HEL | >50 µg/mL
CC1(C)[C@@H](CCO)C[C@H]1n1nnc2c(=O)[nH]cnc21 | DAVIS | HEL | >20 µg/mL
CC(C)C[C@H](NC(=O)n1nnc2ccccc21)C(=O)NC(c1ccccc1)c1ccccc1 | AD169 | HEL | >16 µg/mL
CC1(C)[C@@H](CCO)C[C@H]1n1cnc2c(N)ncnc21 | AD169 | HEL | 20 µg/mL
Nc1ccn(C[C@@H](CO)OCP(=O)(O)O)c(=O)n1 | DAVIS | HEL | 2.1 µM
COC(O)[C@@H]1OC12[C@@H](CO[Si](C)(C)C(C)(C)C)O[C@@H](n1cc(C)c(=O)[nH]c1=O)[C@@H]2O[Si](C)(C)C(C)(C)C |  | MRC-5 | 12 µM
CN1c2ccc(Cl)cc2C(C)(C)C12C=Cc1cc([N+](=O)[O-])ccc1O2 | DAVIS | HEL | >1.8 µM
CC(C)Nc1nc2cc(Cl)c(Cl)cc2n1[C@H]1O[C@@H](CO)[C@H](O)[C@@H]1O | Clinical isolates |  | 0.12–0.56 µM
Nc1nc2c(ncn2C[C@H]2CCC[C@H]2CO)c(=O)[nH]1 | DAVIS | HEL | >50 µg/mL
CC(C)C[C@H](NC(=O)n1nnc2ccccc21)C(=O)NCC1CCCCC1 | DAVIS | HEL | >80 µg/mL
CC1(C)[C@@H](CCO)C[C@H]1n1nnc2c(Cl)nc(N)nc21 | AD169 | HEL | >50 µg/mL
O=C(CCCCCCC(=O)Nc1cc(S(=O)(=O)O)cc2cc(S(=O)(=O)O)cc(O)c12)Nc1cc(S(=O)(=O)O)cc2cc(S(=O)(=O)O)cc(O)c12 | AD169 | MRC-5 | 12 µM
CN1c2ccc([N+](=O)[O-])cc2C(C)(C)C12C=Cc1ccccc1O2 | AD169 | HEL | >49.8 µM
NC1=NS(=O)(=O)N(Cc2ccccc2)c2nc(-c3ccc(Cl)cc3)[nH]c21 | AD169 | HEL | >5 µg/mL
Nc1nc2c(ncn2COC(CO)CO)c(=O)[nH]1 | DAVIS | HEL | 9.1 µM
CC(C)(C)[Si](C)(C)OC[C@H]1O[C@@H](n2ccc(=O)[nH]c2=O)[C@H](O[Si](C)(C)C(C)(C)C)/C1=C/CO |  | MRC-5 | 2.1 µM
Nc1nc(N)c2ncn([C@H]3CCC[C@H]3CO)c2n1 | AD169 | HEL | >50 µg/mL

Again, the opening 2 rows:

structure | strain or isolate | cell line | result
CC(C)C[C@H](NC(=O)n1nnc2ccccc21)C(=O)NC1CCCC1 | AD169 | HEL | >3.2 µg/mL
CCCCCCCCCCCCCCCC(=O)Nc1cc(S(=O)(=O)O)cc2cc(S(=O)(=O)O)cc(O)c12 | Isolate T-1082 | MRC-5 | 12 µM

Two numbers with a dash give a range or band. Conditions beyond the fields shown may differ between rows. Blank or dashed fields: not listed here.